Data: patent US20100004187A1 (priority 2008, published 2010)

What was measured:
[1] = test system: Francisella tularensis subspecies Novicida; conditions: CC50 BHK cells over average of the two IC50s
Francisella philomiragia = conditions: CC50 BHK cells over average of the two IC50s

Which results are given for hexamminecobalt (III) chloride?
in vitro selectivity ratio CC50/IC50 [1]: 145; in vitro selectivity ratio CC50/IC50 (Francisella philomiragia): 88
